Experimental data published in patent US12252423B2, “Biodegradation of fluorochemicals” (The Trustees of Princeton University, priority 2018, dated 2025).

System: A6 enrichment culture
Experiment: Feammox incubation of various PFAS with A6 enrichment culture, day 60
Parameters: species or system Acidimicrobiaceae sp. A6
Conditions: initial conc. 100 mg/l

**Q.** `O=S(=O)(O)CCC(F)(F)C(F)(F)C(F)(F)C(F)(F)C(F)(F)C(F)(F)C(F)(F)C(F)(F)F` [8:2 FTS, 8:2 Fluorotelomer sulfonate] was tested. Which Acetate produced did it give?
**A.** 5.1 mg/L

**Q.** And the Decrease in concentration?
**A.** 23.5 mg/L

**Q.** And the “F^− produced” value?
**A.** 6.9 mg/L

**Q.** What about the “% defluorination of initial compound degraded” value (ratio of F− produced to F− expected for complete defluorination) of the same compound?
**A.** 48%
